Biological target: gC1qR, wild type, mature recombinant (receptor for the globular heads of C1q) (UniProt Q07021)
Test: SPR; gC1qR-WT or gC1qR-ΔΔ immobilised; two-fold dilution series of analyte injected; reference-corrected sensorgrams fit to kinetic models; apparent KD

Amino acid sequences for entries named in this document (tags omitted). Residues count along the entry.
UniProt Q07021, 74-282: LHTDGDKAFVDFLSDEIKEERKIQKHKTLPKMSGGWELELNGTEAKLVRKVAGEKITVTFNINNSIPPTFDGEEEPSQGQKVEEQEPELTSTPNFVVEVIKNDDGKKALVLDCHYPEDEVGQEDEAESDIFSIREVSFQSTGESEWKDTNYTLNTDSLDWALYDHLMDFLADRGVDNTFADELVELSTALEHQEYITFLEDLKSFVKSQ

## SARS-CoV-2 spike S1 protein, recombinant (from UniProt P0DTC2 14-685) (domain or fragment)
  Kd: 91 nM

Reference: publication PMC8602850
